Experimental data published in ChEMBL document CHEMBL4808181, “Hydrophobic Pocket Occupation Design of Difluoro-Biphenyl-Diarylpyrimidines as Non-Nucleoside HIV-1 Reverse Transcriptase Inhibitors: from N-Alkylation to Methyl Hopping on the Pyrimidine Ring” (J Med Chem, 2021).

Legend:
[1] = target: Human immunodeficiency virus type 1 reverse transcriptase (Human immunodeficiency virus 1, UniProt Q72547, K103N); experiment: Inhibition of HIV-1 p66/p51 reverse transcriptase K103N mutant incubated for 40 mins by picogreen dye-based spectrofluorometric analysis
[2] = target: Human immunodeficiency virus type 1 reverse transcriptase (Human immunodeficiency virus 1, UniProt Q72547, Y181C); experiment: Inhibition of HIV-1 p66/p51 reverse transcriptase Y181C mutant incubated for 40 mins by picogreen dye-based spectrofluorometric analysis

Compound `Cc1cc(C#N)cc(C)c1Oc1nc(Nc2ccc(C#N)cc2)nc(N)c1Br` [ETRAVIRINE] has an EC50 [1] of 3.4 nM and an EC50 [2] of 18.9 nM.
